In PMC8130932 (PLoS Pathogens, 2021):

Molecular target: T1, SARS-CoV-2 spike glycoprotein, full-length, prefusion-stabilised, on MDCK-SIAT1 cells (SARS-CoV-2, reference sequence, UniProt P0DTC2, 986KV987 to 986PP987 | 682RRAR685 to 682GSAG685)
T1 construct: also called MDCK-Spike
Assay: flow cytometry on cells
Conditions: one partner purified

B1: FD 5D (antibody, V domains shown)
VH: EVQLVESGGGLVQPGGSLRLSCAASGFTFSSYSMNWVRQAPGKGLEWVSYISSSSSTIYYADPVKGRFTISRDNAKNSLYLQMNSLRAEDTAVYYCASPGGITAAGTSVLFGYYGMDVWGQGTMVTVSS
VL: not shown
notes: source: HEK293T, transfected; culture supernatant or purified
  binding result: binds
